The text below walks through data of patent US7560482B2, “Inhibitors of plasmepsins” (The Johns Hopkins University, priority 2001, dated 2009).

Protein sequences, listed by entry. Tags and fused reporters are not part of them. Residues count along the entry.
UniProt P46925, 125-453 limits assumed: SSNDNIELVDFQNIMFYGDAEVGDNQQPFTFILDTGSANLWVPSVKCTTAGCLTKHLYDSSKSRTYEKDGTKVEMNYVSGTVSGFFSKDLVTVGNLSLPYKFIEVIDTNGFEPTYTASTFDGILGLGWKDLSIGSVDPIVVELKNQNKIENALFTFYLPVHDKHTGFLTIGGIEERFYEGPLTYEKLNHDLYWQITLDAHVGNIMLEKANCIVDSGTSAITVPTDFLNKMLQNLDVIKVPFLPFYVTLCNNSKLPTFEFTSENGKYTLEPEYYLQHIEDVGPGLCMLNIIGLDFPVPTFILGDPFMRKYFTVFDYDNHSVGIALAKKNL

For the test, the target named is plasmepsin II from Plasmodium falciparum (Plm II) (Plasmodium falciparum, UniProt P46925). Briefly: Plasmepsin II inhibition assay, hydrolysis of chromogenic substrate. It counts as biochemical. The following applies: read-out: Ki Plm II; 25° C., 10 mM sodium formate, 2% DMSO, pH 4.0; fit to competitive inhibition. As to the method:
FIG. 7A-C. Inhibition of Plasmepsin II from Plasmodium falciparum by KNI-10033, KNI-10030 and KNI-10006 at 20° C. in 10 mM sodium citrate, 100 mM NaCl, 2% DMSO, pH 4.0. The inhibition constants are 3 nM, 11 nM and 0.5 rLM respectively.
The specific activity of plasmepsin II from Plasmodium falciparum (Plm II) cloned in and purified from Escherchia coli and commercially available human Cathepsin D were measured by following the hydrolysis of the chromogenic substrate Ala-Leu-Glu-Arg-Thr-nPhe-Phe-Ser-Phe-Pro-Thr-OH (California Peptide Research Inc., Napa, Calif.). The decrease in absorbance upon hydrolysis is monitored at 300 nm. Typical Plasmepsin II preparations hydrolyze chromogenic substrate at 4-5 s^−1 at 37° C. The inhibition assays were performed at 25° C. in 10 mM sodium formate, 2% DMSO, pH 4.0. These pH conditions mimic the conditions in the food vacuole of the parasite. Under the conditions of the assays the Km for plasmepsin II is 20 μM and for human Cathepsin D is 130 μM. Inhibition constants (Ki) for the inhibitors are obtained at the desired temperature and solvent conditions by measuring the rate of substrate hydrolysis at increasing amounts of inhibitors. Exemplary results from three compounds (KNI-10033, KNI-10030 and KNI-10006) are shown in FIG. 7A-C, and the results obtained with all KNI compounds tested are given in Table 1.

In general, Ki refers to the dissociation constant of the complex between target and ligand, obtained from inhibition or displacement. For the compound `Cc1c(O)cccc1C(=O)N[C@@H](Cc1ccccc1)[C@H](O)C(=O)N1CSC[C@H]1C(=O)NC(C)(C)C`, the Ki was 8.6 µM.

As for `C[C@@H](O)[C@H](NC(=O)COc1cccc2cnccc12)C(=O)N[C@@H](Cc1ccccc1)[C@H](O)C(=O)N1CSC(C)(C)[C@H]1C(=O)NC(C)(C)C`, the Ki was 2.62 µM.
